According to patent publication US20200165613, “VIRUS LIKE PARTICLE” (The University of Leeds, published 2020):
The exact form of at least one protein or probe is not confirmed. Where a protein sequence is shown, tags need not be part of it.

Target: T1, STNV coat protein wild-type (Satellite tobacco necrosis virus 1) (UniProt P03606)
T1 sequence (looked up, limits assumed): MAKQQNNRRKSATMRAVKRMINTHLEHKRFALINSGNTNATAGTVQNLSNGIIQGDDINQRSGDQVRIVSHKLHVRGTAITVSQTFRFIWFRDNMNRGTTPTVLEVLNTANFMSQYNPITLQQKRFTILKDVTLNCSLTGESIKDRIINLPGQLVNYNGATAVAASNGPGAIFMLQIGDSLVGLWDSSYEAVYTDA
Test: binding assay
Settings: purified recombinant protein

**Q.** Does “AACAACAGAACAACAGGCGAAAAUCCGCAACAAUGCGUGCAGUGAAGCGCAUGAUAAAUACACAC [STNV PS2-4]” bind (smFCS, RNase-resistant T=1 shells, lower yield than 127-mer, no collapse, label: 5' Alexa Fluor 488, variant of STNV-1 PS1-5 127-mer)?
**A.** binds

**Q.** Does ACAUGCAACCAUGCACAC [B3 ACCA] bind (svAUC, T=1 capsids with similar efficiency to PS3, 2 mM Ca2+, variant of B3 short / PS3 ACAA)?
**A.** binds

**Q.** Does “CCUUUUCAAGACAUGCAACAAUGCACACAG [B3 aptamer]” bind (smFCS, trimeric capsomer then T=1 VLP, 1 nM RNA, label: Alexa Fluor 488)?
**A.** binds
